Results of unrelated studies side by side (data: NIAID ChemDB).

All rows: growth or infection tests; organism: Candida albicans; measure: MIC

Lines come from different laboratories, so protocols vary.

smiles,strain or isolate,value
CC(C)(C)COC(=O)N[C@H](Cc1cn(CCc2ccccc2)nn1)C(=O)OCc1cn(CCc2ccccc2)nn1,MTCC 183,20.2 µM
NCCC(=O)N[C@H]1[C@@H](O)[C@H](n2cnc3c(N)ncnc32)O[C@@H]1C(=O)O,FP633,>100 µg/mL
CC(Oc1ccccc1)c1nnc(SCC(=O)Nc2nccs2)n1C1CCCCC1,NRRL Y-27077,>16 µg/mL
CN=C(N)SCCN(CCSC(N)=NC)CCSC(N)=NC,ATCC 18804,500 µg/mL
COc1ccc(-c2cc(=O)c3ccc4c(ccn4C)c3o2)cc1,-,>50 µg/mL
Cc1ccccc1Cn1cc(COC(=O)[C@@H](Cc2cn(Cc3ccccc3C)nn2)NC(=O)OCC(C)(C)C)nn1,MTCC 183,10.1 µM
Cc1ccc(OC(C)c2nnc(SCC(=O)Nc3nccs3)n2-c2ccccc2)cc1,Clinical isolates,>16 µg/mL
COC(Cn1cc(-c2ccc(Cl)cc2)c(C(c2ccc(Cl)cc2Cl)n2ccnc2)c1)OC,-,0.48 µg/mL
NC(=O)[C@H](O[C@H]1OC(C(=O)O)=C[C@H](O)[C@@H]1O)[C@H]1O[C@@H](n2ccc(=O)[nH]c2=O)[C@H](O)[C@@H]1O,YU-1200,>100 µg/mL
Cc1ccc(Cn2cc(COC(=O)[C@@H](Cc3cn(Cc4ccc(C)cc4)nn3)NC(=O)OCC(C)(C)C)nn2)cc1,MTCC 183,10.1 µM
CCn1cc(-c2cccc3ccccc23)c(C(c2ccc(Cl)cc2Cl)n2ccnc2)c1,-,1.1 µg/mL
CC(C)(C)COC(=O)N[C@H](Cc1cn(Cc2cccc([N+](=O)[O-])c2)nn1)C(=O)OCc1cn(Cc2cccc([N+](=O)[O-])c2)nn1,MTCC 183,18.4 µM
CO[C@H]1[C@@H](O)[C@H](n2ccc(=O)[nH]c2=O)O[C@@H]1[C@@H](O[C@H]1OC(C(=O)NCCSSCCNC(C)=O)=C[C@H](O)[C@@H]1O)C(N)=O,YU-1200,>100 µg/mL
CCCCCOc1ccc(-c2ccc(-c3ccc(C(=O)N[C@H]4CCCNC(=O)C5CCCN5C(=O)C(C(C)O)NC(=O)C(CCc5ccc(O)cc5)NC(=O)C5C[C@@H](O)CN5C(=O)C(C(C)O)NC4=O)cc3)cc2)cc1,ATCC 10231,3.12 µg/mL
CCO/N=C(/C(=O)N[C@H]1[C@@H](O)[C@H](n2cnc3c(N)ncnc32)O[C@@H]1C(=O)O)C1N=C(N)SN1,FP633,>100 µg/mL
O=C1C=C(C=Cc2ccc(F)cc2)c2ccc(OCCCn3ccnc3)cc2C1,ATCC 24433,12.5 µg/mL
NC(N)=NCCC[C@H](N)C(=O)N[C@H]1[C@@H](O)[C@H](n2cnc3c(N)ncnc32)O[C@@H]1C(=O)O,FP633,12.5 µg/mL
CO[C@@H]1C[C@H](C[C@@H](C)[C@@H]2CC(=O)[C@H](C)/C=C(\C)[C@@H](O)[C@@H](OC)C(=O)[C@H](C)C[C@H](C)/C=C/C=C/C=C(\C)[C@@H](N(OC)C(=O)N(C)C)C[C@@H]3CC[C@@H](C)[C@@](O)(O3)C(=O)C(=O)N3CCCC[C@H]3C(=O)O2)CC[C@H]1C(=O)ON(C)O,10231,50 µg/mL
O=[n+]1c(Sc2ccccc2)c(CBr)n([O-])c2ccccc21,Clinical isolate 10,31.25 µg/mL
Cc1cccc(Cn2cc(COC(=O)[C@@H](Cc3cn(Cc4cccc(C)c4)nn3)NC(=O)OCC(C)(C)C)nn2)c1,MTCC 183,20.2 µM
CN(CCCC#CC(C)(C)C)c1cccc2c1CCC(=O)N2,Clinical isolate 16,62.5 µg/mL
COc1ccc(-c2oc3c(ccc4sccc43)c(=O)c2O)cc1,-,>50 µg/mL
Fc1ccc(-n2ccc(C(c3ccc(Cl)cc3)n3ccnc3)c2)cc1,-,2.7 µg/mL
Cn1ccc2c3oc(-c4ccccc4)cc(=O)c3ccc21,-,25 µg/mL
CC(C)SCC[C@H](N)C(=O)N[C@H]1[C@@H](O)[C@H](n2cnc3c(N)ncnc32)O[C@@H]1C(=O)O,FP633,25 µg/mL
CCOC(=O)Cc1csc(NC(=O)CSc2nnc(C(C)Oc3ccc(C)cc3)n2-c2ccccc2)n1,Clinical isolates,>16 µg/mL
Cc1c(Sc2ccccc2)[n+](=O)c2cc(Cl)ccc2n1[O-],Clinical isolate 5,31.25 µg/mL
O=C(CCN1C(=O)S/C(=C\c2ccccc2F)C1=O)Nc1ccccc1,-,25 µg/mL
CO[C@H]1C[C@@H]2CC[C@@H](C)[C@@](O)(O2)C(=O)C(=O)N2CCCC[C@H]2C(=O)O[C@H]([C@H](C)C[C@@H]2CC[C@@H](C(=O)ON(C)C)[C@H](OC)C2)CC(=O)[C@H](C)/C=C(\C)[C@@H](O)[C@@H](OC)C(=O)[C@H](C)C[C@H](C)CCCC/C=C/1C,442,50 µg/mL
Cc1ccc(C(c2ccn(-c3ccccc3)c2)n2ccnc2)cc1,-,1.2 µg/mL
Cn1ccc2c3oc(-c4ccccc4)c(O)c(=O)c3ccc21,-,>50 µg/mL
CN=C(NC)SCCN(CCSC(=NC)NC)CCN(CCSC(=NC)NC)CCSC(=NC)NC,ATCC 18804,125 µg/mL
Fc1ccc(C(c2ccn(-c3ccc(Cl)cc3)c2)n2ccnc2)cc1,-,2.8 µg/mL
CCCCCOc1ccc(-c2ccc(-c3ccc(C(=O)N[C@H]4CCCNC(=O)[C@@H]5C[C@H](NC(C)=O)CN5C(=O)[C@H]([C@@H](C)O)NC(=O)[C@H](CCc5ccc(O)cc5)NC(=O)[C@@H]5C[C@@H](O)CN5C(=O)[C@H]([C@@H](C)O)NC4=O)cc3)cc2)cc1,ATCC 62376,0.2 µg/mL
CO[C@@H]1C[C@H](C[C@@H](C)[C@@H]2CC(=O)[C@H](C)/C=C(\C)[C@@H](O)[C@@H](OC)C(=O)[C@H](C)C[C@H](C)/C=C/C=C/C=C(\C)[C@@H](N(O)C(=O)N(C)C)C[C@@H]3CC[C@@H](C)[C@@](O)(O3)C(=O)C(=O)N3CCCC[C@H]3C(=O)O2)CC[C@H]1C(=O)ON(C)O,442,100 µg/mL
COC(=O)Cc1csc(NC(=O)CSc2nnc(C(C)Oc3ccccc3)n2C2CCCCC2)n1,NRRL Y-27077,16 µg/mL
O=C(N[C@H](Cc1cn(Cc2ccccc2[N+](=O)[O-])nn1)C(=O)OCc1cn(Cc2ccccc2[N+](=O)[O-])nn1)OCc1ccccc1,MTCC 183,8.9 µM
CCCCCOc1ccc(N(C)CCN(C)c2ccc(C(=O)N[C@H]3CCCNC(=O)C4C[C@H](N)CN4C(=O)C(C(C)O)NC(=O)C(CCc4ccc(O)cc4)NC(=O)C4C[C@@H](O)CN4C(=O)C(C(C)O)NC3=O)cc2)cc1,ATCC 62376,1.56 µg/mL
CCOC(=O)c1csc(NC(=O)CSc2nnc(C(C)Oc3ccc(Cl)cc3)n2-c2ccccc2)n1,NRRL Y-27077,>16 µg/mL
O=C1C=C(C=Cc2ccccc2)c2ccc(OCCCn3ccnc3)cc2C1,ATCC 24433,100 µg/mL
Nc1ccc(O)c2ncccc12,Berkout KCCM 50235,1.6 µg/mL
O=C1C=C(C=Cc2ccc(O)cc2)c2ccc(OCCCn3ccnc3)cc2C1,ATCC 24433,125 µg/mL
CCCCCOc1ccc(-c2ccc(-c3ccc(C(=O)N[C@H]4CCCNC(=O)[C@@H]5C[C@H](NC)CN5C(=O)[C@H]([C@@H](C)O)NC(=O)[C@H](CCc5ccc(O)cc5)NC(=O)[C@@H]5C[C@@H](O)CN5C(=O)[C@H]([C@@H](C)O)NC4=O)cc3)cc2)cc1,ATCC CCH442,0.2 µg/mL
CO[C@H]1[C@@H](O)[C@H](n2ccc(=O)[nH]c2=O)O[C@@H]1[C@@H](O[C@H]1OC(C(=O)N[C@H]2CCC[C@@H](C)NC2=O)=C[C@H](O)[C@@H]1O)C(N)=O,YU-1200,>100 µg/mL
N=C(N)SCCN(CCSC(=N)N)CCN(CCSC(=N)N)CCSC(=N)N,ATCC 18804,>1000 µg/mL
Cc1c(S(=O)(=O)c2ccccc2)[n+](=O)c2cc(Cl)ccc2n1[O-],Clinical isolate 19,62.5 µg/mL
Cc1cc(NC(=O)CCN2C(=O)S/C(=C\c3ccccc3)C2=O)ccc1Cl,-,12.5 µg/mL
CCCCCCCCON1CCN(c2ccc(-c3ccc(C(=O)N[C@H]4CCCNC(=O)C5C[C@H](N)CN5C(=O)C(C(C)O)NC(=O)C(CCc5ccc(O)cc5)NC(=O)C5C[C@@H](O)CN5C(=O)C(C(C)O)NC4=O)cc3)cc2)CC1,ATCC 10231,0.2 µg/mL
Clc1ccc(C(c2c[nH]cc2-c2cccc3ccccc23)n2ccnc2)c(Cl)c1,-,0.21 µg/mL
CCOc1cc2c(cc1F)n([O-])c(C)c(S(=O)(=O)c1ccccc1)[n+]2=O,Clinical isolate 23,15.6 µg/mL
CCCCCOc1ccc(-c2ccc(-c3ccc(C(=O)N[C@H]4CCCNC(=O)C5C[C@H](NC(=O)c6cn[nH]c6)CN5C(=O)C(C(C)O)NC(=O)C(CCc5ccc(O)cc5)NC(=O)C5C[C@@H](O)CN5C(=O)C(C(C)O)NC4=O)cc3)cc2)cc1,ATCC CCH442,0.39 µg/mL
O=C(CCN1C(=O)S/C(=C\c2ccc(Cl)cc2)C1=O)Nc1ccccc1[N+](=O)[O-],-,50 µg/mL
CC(Oc1ccccc1)c1n[nH]c(=S)n1-c1ccccc1,Clinical isolates,16 µg/mL
Cc1ccc(CSCC(N)C(=O)N[C@H]2[C@@H](O)[C@H](n3cnc4c(N)ncnc43)O[C@@H]2C(=O)O)cc1,FP633,0.2 µg/mL
CCOC(=O)Cc1csc(NC(=O)CSc2nnc(C(C)Oc3ccccc3)n2-c2ccccc2)n1,Clinical isolates,>16 µg/mL
COc1ccc(C(Cc2ccc(F)cc2)n2ccnc2)cc1,-,23 µg/mL
CC(O)C1NC(=O)C(CCc2ccc(O)cc2)NC(=O)C2C[C@@H](O)CN2C(=O)C(C(C)O)NC(=O)[C@@H](N)CCCNC(=O)C2C[C@H](N)CN2C1=O,ATCC 62376,>100 µg/mL
O=C(CCN1C(=O)S/C(=C\c2cccc(O)c2)C1=O)Nc1cccc(O)c1,-,6.25 µg/mL
CC(=O)C1CCc2c(ccn2C)C1=O,-,50 µg/mL
Cc1ccc(C(c2ccn(-c3ccc(F)cc3)c2)n2ccnc2)cc1,-,3.1 µg/mL
Cc1ccc(OC(C)c2nnc(SCC(=O)Nc3nccs3)n2C2CCCCC2)cc1,Clinical isolates,>16 µg/mL
CO[C@H]1C[C@@H]2CC[C@@H](C)[C@@](O)(O2)C(=O)C(=O)N2CCCC[C@H]2C(=O)O[C@H]([C@H](C)C[C@@H]2CC[C@@H](C(=O)ON3CCNCC3)[C@H](OC)C2)CC(=O)[C@H](C)/C=C(\C)[C@@H](O)[C@@H](OC)C(=O)[C@H](C)C[C@H](C)CCCC/C=C/1C,10231,>100 µg/mL
CCCCCCCCOc1ccc(N2CCN(c3ccc(C(=O)N[C@H]4CCCNC(=O)C5C[C@H](N)CN5C(=O)C(C(C)O)NC(=O)C(CCc5ccc(O)cc5)NC(=O)C5C[C@@H](O)CN5C(=O)C(C(C)O)NC4=O)cc3)CC2)cc1,ATCC 10231,0.2 µg/mL
CC(=O)OC(CCCC12OC(C(=O)O)C(O)(C(=O)O)C(C(=O)O)(O1)C(OC(=O)CCCCCC/C=C/c1ccccc1)C2O)C(C)C/C=C/c1ccccc1,427,1.5 µg/mL
CO[C@@H]1C[C@H](C[C@@H](C)[C@@H]2CC(=O)[C@H](C)/C=C(\C)[C@@H](O)[C@@H](OC)C(=O)[C@H](C)C[C@H](C)/C=C/C=C/C=C(\C)[C@H](N(O)C(=O)N(C)C)C[C@@H]3CC[C@@H](C)[C@@](O)(O3)C(=O)C(=O)N3CCCC[C@H]3C(=O)O2)CC[C@H]1C(=O)ON(C)O,579A,100 µg/mL

The first 7 rows once more:

smiles | strain or isolate | value
CC(C)(C)COC(=O)N[C@H](Cc1cn(CCc2ccccc2)nn1)C(=O)OCc1cn(CCc2ccccc2)nn1 | MTCC 183 | 20.2 µM
NCCC(=O)N[C@H]1[C@@H](O)[C@H](n2cnc3c(N)ncnc32)O[C@@H]1C(=O)O | FP633 | >100 µg/mL
CC(Oc1ccccc1)c1nnc(SCC(=O)Nc2nccs2)n1C1CCCCC1 | NRRL Y-27077 | >16 µg/mL
CN=C(N)SCCN(CCSC(N)=NC)CCSC(N)=NC | ATCC 18804 | 500 µg/mL
COc1ccc(-c2cc(=O)c3ccc4c(ccn4C)c3o2)cc1 | - | >50 µg/mL
Cc1ccccc1Cn1cc(COC(=O)[C@@H](Cc2cn(Cc3ccccc3C)nn2)NC(=O)OCC(C)(C)C)nn1 | MTCC 183 | 10.1 µM
Cc1ccc(OC(C)c2nnc(SCC(=O)Nc3nccs3)n2-c2ccccc2)cc1 | Clinical isolates | >16 µg/mL

An empty or dashed field is not shown.